Strings that start with PEPTIDE1 are HELM notation: dots part the residues, brackets hold end groups and non-standard residues.
Test: general procedure: Fmoc solid-phase peptide synthesis
Settings: whole synthesis; for isolated yield: scale 50 µM

Substance	final LC-MS purity [%]	isolated yield [%]
PEPTIDE1{S.G.T.Q.E.E.Y.K.[am]}|PEPTIDE2{[MP17]}$PEPTIDE1,PEPTIDE2,8:R3-1:R2$$$V2.0	97.6	27.7
PEPTIDE1{S.G.T.Q.E.E.Y.K.[am]}|PEPTIDE2{[PP17]}$PEPTIDE1,PEPTIDE2,8:R3-1:R2$$$V2.0	91.1	14.3
PEPTIDE1{V.Q.Q.L.T.K.R.F.S.L.K.[am]}|PEPTIDE2{[PP13]}$PEPTIDE1,PEPTIDE2,11:R3-1:R2$$$V2.0	92.4	14.2
PEPTIDE1{[PP17].S.G.T.Q.E.E.Y.[am]}$$$$V2.0	92	8
SGTQEEY-NH2	94.85	28.8
VQQLTKRFSLK-NH2	98.7	15.1

From EP4233917A1 (Universitat Pompeu Fabra, priority 2022, dated 2023)
